Patent US20260055154A1 (CHENGDU AODA BIOTECHNOLOGY CO., LTD, priority 2022, published 2026)

Columns and labels:
[1] = general procedure: Fmoc solid-phase peptide synthesis; Rink Amide MBHA resin (substitution about 0.4 mmol/g); conditions: whole synthesis, acetate; for final HPLC purity: analytical liquid phase (HPLC); for final HPLC purity / isolated yield: scale of the general procedure 1 mmol; for isolated yield: total yield
[2] = peptide synthesis; conditions: whole synthesis, acetate

Substance	final HPLC purity [1]	isolated mass ([1]; scale 1 mmol)	isolated yield [1]	isolated mass [1]	final HPLC purity [2]	isolated yield [2]
His-Aib-Gln-Gly-Thr-Phe-Thr-Ser-Asp-Tyr-Ser-Lys-Tyr-Leu-Asp-Glu-Lys-Lys-Ala-Lys(AEEA-AEEA-γGlu-eicosanedioic acid)-Glu-Phe-Val-Glu-Trp-Leu-Leu-Glu-Gly-Gly-Pro-Ser-Ser-Gly-Ala-Pro-Pro-Pro-Ser-NH2	97.9%	0.35 g	7.0%	–	–	–
His-Aib-Gln-Gly-Thr-Phe-Thr-Ser-Asp-Tyr-Ser-Lys-Tyr-Leu-Asp-Glu-Lys-Lys-Ala-Lys(Gly-Gly-Glu-Gly-Glu-Gly-γGlu-eicosanedioic acid)-Glu-Phe-Val-Glu-Trp-Leu-Leu-Glu-Gly-Gly-Gly-Pro-Ser-Ser-Gly-Ala-Pro-Pro-Pro-Ser-NH2	96.5%	–	5.8%	0.30 g	–	–
His-Aib-Gln-Gly-Thr-Phe-Thr-Ser-Asp-Tyr-Ser-Lys-Tyr-Leu-Asp-Glu-Lys-Lys-Ala-Lys(Gly-Gly-Ser-Gly-Ser-Gly-γGlu-eicosanedioic acid-γGlu-eicosanedioic acid)-Glu-Phe-Val-Glu-Trp-Leu-Leu-Glu-Gly-Gly-Pro-Ser-Ser-Gly-Ala-Pro-Pro-Pro-Ser-NH2	93.4%	–	6.4%	0.33 g	–	–
His-Aib-Gln-Gly-Thr-Phe-Thr-Ser-Asp-Tyr-Ser-Lys-Tyr-Leu-Asp-Glu-Lys-Lys-Ala-Lys(PEG5CH2CO-γGlu-eicosanedioic acid)-Glu-Phe-Val-Glu-Trp-Leu-Leu-Glu-Gly-Gly-Pro-Ser-Ser-Gly-Ala-Pro-Pro-Pro-Ser-NH2	–	–	–	–	97.0%	8.6%
